PSTVd loop 15 mutant pool in Nicotiana benthamiana

The measurements come from Wu et al. 2024 (doi:10.1371/journal.ppat.1012142).

PSTVd intermediate strain, loop 15: wild type GGAAACCGCUACUAC, pool pattern GGAAACCGNNNNNNC; upper and lower strand joined, each 5' to 3', the first 7 letters being the upper strand, closing pairs included.

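A pool of all variants was put on leaves of three Nicotiana benthamiana plants. Samples came from the inoculated region at 5 days, the leaf margin at 10 and upper systemic leaves at 12.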

Numbers give reads per thousand; 0 = not seen among the reads, higher = more abundant.
Each value is the mean of three plants.
"Pool" is the share in the plasmid pool used as inoculum, on the same scale.
The inoculated region was read from the minus strand, the other sites from the plus strand.
The authors trace changes outside the varied positions to PCR and sequencing errors or to mutation in the plant; presence does not show that a variant is infectious alone.
Wild type was 33.9 per thousand in the pool and the most common sequence in every sample (inoculated region 202, 200, 159; leaf margin 724, 746, 710; systemic leaves 856, 883, 880).
With 43,870-66,106 reads a sample, very low values are single reads.

sequence	pool	inoculated region	leaf margin	systemic leaves
GGAAACCGCCGUCAC	0.176	0.221	0	0.0130
GGAAACCGCUCUGUC	0.176	0.197	0.0108	0.00537
GGAAACCGCACUUAC	0.224	0.327	0.107	0.0215
GGAAACCGCAAUGAC	0.288	0.112	0.0208	0
GGAAACCGCCGCCGC	0.224	0.133	0.0175	0.0104
GGAAACCGGGAGUAC	0.320	0.425	0.110	0.0357
GGAAACCGGACGCUC	0.160	0.0741	0	0
GGAAACCGCAGACAC	0.272	0.129	0.0134	0
GGAAACCGGGCAUUC	0.192	0.0739	0.00539	0
GGAAACCGAACUGCC	0.320	0.0967	0.0134	0
GGAAACCGGUCUGAC	0.192	0.104	0.0282	0.00537
GGAAACCGCGGAGAC	0.240	0.0757	0.0215	0
GGAAACCGCACCCGC	0.224	0.0869	0.0121	0
GGAAACCGGGCUCGC	0.256	0.0891	0.0134	0
GGAAACCGAUAACUC	0.256	0.231	0.134	0.0107
GGAAACCGUCGAUCC	0.176	0.0930	0.0121	0
GGAAACCGCUCUCUC	0.304	0.0648	0.0108	0
GGAAACCGAUCGUGC	0.224	0.309	0.134	0.0711
GGAAACCGGAGUGGC	0.192	0.116	0.00742	0
GGAAACCGACCGAUC	0.160	0.383	0.128	0.0487
GGAAACCGUUACACC	0.272	0.0674	0.00539	0
GGAAACCGCGGCGGC	0.0960	0.0738	0.00539	0.00537
GGAAACCGAUGACAC	0.176	0.0913	0.0289	0
GGAAACCGUGGUUCC	0.112	0.0869	0.0134	0
GGAAACCGUCUUGCC	0.208	0.109	0.00668	0
GGAAACCGGCUCUCC	0.224	0.115	0.00539	0
GGAAACCGGUACACC	0.224	0.115	0.00742	0
GGAAACCGCACAAUC	0.256	0.102	0.00668	0
GGAAACCGUAACAUC	0.192	0.0941	0.0202	0.00760
GGAAACCGAAUACUC	0.176	0.0977	0.0141	0
GGAAACCGACACACC	0.192	0.118	0.0195	0
GGAAACCGUUCAACC	0.304	0.0972	0.0134	0
GGAAACCGUAUUCCC	0.192	0.0786	0.0141	0
GGAAACCGAUUUUUC	0.192	0.0913	0.00668	0
GGAAACCGCUCGUGC	0.256	0.381	0.119	0.0439
GGAAACCGCGGGCUC	0.240	0.107	0.0308	0.00760
GGAAACCGAUGCAGC	0.240	0.0724	0.00668	0
GGAAACCGAUUUGUC	0.208	0.137	0	0
GGAAACCGUGGAGAC	0.240	0.105	0.00539	0
GGAAACCGAUGUAGC	0.192	0.0890	0.0175	0
GGAAACCGUGCCGGC	0.256	0.0714	0.0215	0
GGAAACCGUAGUACC	0.256	0.0962	0.0148	0
GGAAACCGAGCUAGC	0.176	0.0777	0.00742	0.00537
GGAAACCGUAUUGAC	0.224	0.129	0.00539	0
GGAAACCGAGAAGGC	0.160	0.169	0	0.00537

The opening 3 entries, copied out:

- GGAAACCGCCGUCAC (pool 0.176) -> inoculated region 0.221; leaf margin 0; systemic leaves 0.0130
- GGAAACCGCUCUGUC (pool 0.176) -> inoculated region 0.197; leaf margin 0.0108; systemic leaves 0.00537
- GGAAACCGCACUUAC (pool 0.224) -> inoculated region 0.327; leaf margin 0.107; systemic leaves 0.0215